Experimental data taken from patent publication US20250353853A1, “FLAVIVIRUS INHIBITORS” (IRBM S.P.A., priority 2022, published 2025).

Amino acid sequences for entries named in this document (tags omitted). Residues count along the entry.
UniProt P32886, 1505-1684 limits assumed: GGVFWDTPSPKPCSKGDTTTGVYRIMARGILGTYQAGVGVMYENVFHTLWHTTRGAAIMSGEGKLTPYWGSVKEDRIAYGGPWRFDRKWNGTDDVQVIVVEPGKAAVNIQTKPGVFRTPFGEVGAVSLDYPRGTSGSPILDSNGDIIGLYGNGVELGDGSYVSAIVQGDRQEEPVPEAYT

biological target: Japanese encephalitis virus (JEV)-NS2B-NS3 protease (Japanese encephalitis virus (strain Jaoars982) (JEV), UniProt P32886); assay: JEV Protease Inhibition Assay

Row | Structure (SMILES) | IC50 [nM]
1 | O=C([N-]c1c[n+](CCc2ccccc2)no1)Nc1cccc(C(F)(F)F)c1 [Example 5, (3-phenethyl-1,2,3-oxadiazol-3-ium-5-yl)((3-(trifluoromethyl)phenyl)carbamoyl)amide] | 1000 to 20000
2 | O=C([N-]c1c[n+](Cc2ccccc2)no1)Nc1cccc(C(F)(F)F)c1 [Example 6, (3-Benzyl-1,2,3-oxadiazol-3-ium-5-yl)((3-(trifluoromethyl)phenyl)carbamoyl) amide] | 1000 to 20000
3 | O=C([N-]c1c[n+](Cc2ccc(Br)cc2)no1)Nc1cccc(C(F)(F)F)c1 [Example 19, (3-(4-bromobenzyl)-1,2,3-oxadiazol-3-ium-5-yl)((3-(trifluoromethyl)phenyl)carbamoyl)amide] | 1000 to 20000
4 | Cc1ccccc1-c1ccc(C[n+]2cc([N-]C(=O)Nc3cccc(C(F)(F)F)c3)on2)cc1 [Example 21, (3-((2′-methyl-[1,1′-biphenyl]-4-yl)methyl)-1,2,3-oxadiazol-3-ium-5-yl)((3-(trifluoromethyl)phenyl)carbamoyl)amide] | 1000 to 20000
5 | O=C([N-]c1c[n+](Cc2ccc(-c3cccnc3)cc2)no1)Nc1cccc(C(F)(F)F)c1 [Example 22, (3-(4-(pyridin-3-yl)benzyl)-1,2,3-oxadiazol-3-ium-5-yl)((3-(trifluoromethyl)phenyl)carbamoyl)amide] | 1000 to 20000
6 | O=C([N-]c1c[n+](Cc2ccc(-c3cncnc3)cc2)no1)Nc1cccc(C(F)(F)F)c1 [Example 26, (3-(4-(Pyrimidin-5-yl)benzyl)-1,2,3-oxadiazol-3-ium-5-yl)((3-(trifluoromethyl)phenyl)carbamoyl)amide] | 1000 to 20000
7 | O=C([N-]c1c[n+](Cc2cccc(-c3ccccc3)c2)no1)Nc1cccc(C(F)(F)F)c1 [Example 27, (3-([1,1′-biphenyl]-3-ylmethyl)-1,2,3-oxadiazol-3-ium-5-yl)((3-(trifluoromethyl)phenyl)carbamoyl)amide] | 1000 to 20000
8 | CC(C[n+]1cc([N-]C(=O)Nc2cccc(C(F)(F)F)c2)on1)c1ccccc1 (stereo not shown) [Example 28, (3-(2-phenylpropyl)-1,2,3-oxadiazol-3-ium-5-yl)((3-(trifluoromethyl)phenyl)carbamoyl)amide] | 1000 to 20000
9 | O=C([N-]c1c[n+](Cc2cccnc2)no1)Nc1cccc(C(F)(F)F)c1 [Example 29, (3-(pyridin-3-ylmethyl)-1,2,3-oxadiazol-3-ium-5-yl)((3-(trifluoromethyl)phenyl)carbamoyl)amide] | 100 to 1000
10 | O=C([N-]c1c[n+]([C@@H](CO)c2ccccc2)no1)Nc1cccc(C(F)(F)F)c1 [Example 30, (R)-(3-(2-hydroxy-1-phenylethyl)-1,2,3-oxadiazol-3-ium-5-yl)((3-(trifluoromethyl)phenyl)carbamoyl)amide] | 1000 to 20000
11 | CC(c1ccccc1)[n+]1cc([N-]C(=O)Nc2cccc(C(F)(F)F)c2)on1 (stereo not shown) [Example 38, (3-(1-phenylethyl)-1,2,3-oxadiazol-3-ium-5-yl)((3-(trifluoromethyl)phenyl)carbamoyl)amide] | 1000 to 20000
12 | O=C([N-]c1c[n+](Cc2ccc(-c3ccncc3)cc2)no1)Nc1cccc(C(F)(F)F)c1 [Example 39, (3-(4-(pyridin-4-yl)benzyl)-1,2,3-oxadiazol-3-ium-5-yl)((3-(trifluoromethyl)phenyl)carbamoyl)amide] | 1000 to 20000
13 | COc1ncc(-c2ccc(C[n+]3cc([N-]C(=O)Nc4cccc(C(F)(F)F)c4)on3)cc2)cn1 [Example 41, (3-(4-(2-methoxypyrimidin-5-yl)benzyl)-1,2,3-oxadiazol-3-ium-5-yl)((3-(trifluoromethyl)phenyl)carbamoyl)amide] | 1000 to 20000
14 | O=C([N-]c1c[n+](Cc2ccc(-c3cnccn3)cc2)no1)Nc1cccc(C(F)(F)F)c1 [Example 42, (3-(4-(pyrazin-2-yl)benzyl)-1,2,3-oxadiazol-3-ium-5-yl)((3-(trifluoromethyl)phenyl)carbamoyl)amide] | 1000 to 20000
15 | O=C([N-]c1c[n+](Cc2cccc(Br)c2)no1)Nc1cccc(C(F)(F)F)c1 [Example 46, (3-(3-bromobenzyl)-1,2,3-oxadiazol-3-ium-5-yl)((3-(trifluoromethyl)phenyl)carbamoyl)amide] | 1000 to 20000
16 | O=C([N-]c1c[n+](Cc2ccc(I)cc2)no1)Nc1cccc(C(F)(F)F)c1 [Example 47, (3-(4-iodobenzyl)-1,2,3-oxadiazol-3-ium-5-yl)((3-(trifluoromethyl)phenyl)carbamoyl)amide] | 1000 to 20000
17 | O=C([N-]c1c[n+](Cc2ccc(-c3cnoc3)cc2)no1)Nc1cccc(C(F)(F)F)c1 [Example 48, (3-(4-(isoxazol-4-yl)benzyl)-1,2,3-oxadiazol-3-ium-5-yl)((3-(trifluoromethyl)phenyl)carbamoyl)amide] | 1000 to 20000
18 | O=C([N-]c1c[n+](Cc2cccc(-c3cncnc3)c2)no1)Nc1cccc(C(F)(F)F)c1 [Example 50, (3-(3-(Pyrimidin-5-yl)benzyl)-1,2,3-oxadiazol-3-ium-5-yl)((3-(trifluoromethyl)phenyl)carbamoyl)amide] | 1000 to 20000
19 | O=C([N-]c1c[n+](Cc2cccc(-c3cccnc3)c2)no1)Nc1cccc(C(F)(F)F)c1 [Example 51, (3-(3-(pyridin-3-yl)benzyl)-1,2,3-oxadiazol-3-ium-5-yl)((3-(trifluoromethyl)phenyl)carbamoyl)amide] | 1000 to 20000
20 | Cn1cc(-c2cccc(C[n+]3cc([N-]C(=O)Nc4cccc(C(F)(F)F)c4)on3)c2)cn1 [Example 52, (3-(3-(1-methyl-1H-pyrazol-4-yl)benzyl)-1,2,3-oxadiazol-3-ium-5-yl)((3-(trifluoromethyl)phenyl)carbamoyl)amide] | 1000 to 20000
21 | COc1ncc(-c2cccc(C[n+]3cc([N-]C(=O)Nc4cccc(C(F)(F)F)c4)on3)c2)cn1 [Example 53, (3-(3-(2-methoxypyrimidin-5-yl)benzyl)-1,2,3-oxadiazol-3-ium-5-yl)((3-(trifluoromethyl)phenyl)carbamoyl)amide] | 1000 to 20000
22 | Cc1ncncc1-c1ccc(C[n+]2cc([N-]C(=O)Nc3cccc(C(F)(F)F)c3)on2)cc1 [Example 60, (3-(4-(4-methylpyrimidin-5-yl)benzyl)-1,2,3-oxadiazol-3-ium-5-yl)((3-(trifluoromethyl)phenyl)carbamoyl)amide] | 100 to 1000
23 | O=C([N-]c1c[n+](Cc2ccc(-c3ccnnc3)cc2)no1)Nc1cccc(C(F)(F)F)c1 [Example 61, (3-(4-(pyridazin-4-yl)benzyl)-1,2,3-oxadiazol-3-ium-5-yl)((3-(trifluoromethyl)phenyl)carbamoyl)amide] | 1000 to 20000
24 | COc1ncncc1-c1ccc(C[n+]2cc([N-]C(=O)Nc3cccc(C(F)(F)F)c3)on2)cc1 [Example 62, (3-(4-(4-methoxypyrimidin-5-yl)benzyl)-1,2,3-oxadiazol-3-ium-5-yl)((3-(trifluoromethyl)phenyl)carbamoyl)amide] | 1000 to 20000
25 | COc1cc(-c2ccc(C[n+]3cc([N-]C(=O)Nc4cccc(C(F)(F)F)c4)on3)cc2)ccn1 [Example 63, (3-(4-(2-methoxypyridin-4-yl)benzyl)-1,2,3-oxadiazol-3-ium-5-yl)((3-(trifluoromethyl)phenyl)carbamoyl)amide] | 1000 to 20000
26 | O=C([N-]c1c[n+](Cc2ccc(-c3cncnc3)nc2)no1)Nc1cccc(C(F)(F)F)c1 [Example 103, (3-((6-(pyrimidin-5-yl)pyridin-3-yl)methyl)-1,2,3-oxadiazol-3-ium-5-yl)((3-(trifluoromethyl)phenyl)carbamoyl)amide] | 100 to 1000
27 | Cc1ncnc(C)c1-c1ccc(C[n+]2cc([N-]C(=O)Nc3ccnc(C(F)(F)F)c3)on2)cc1 [Example 185, (3-(4-(4,6-dimethylpyrimidin-5-yl)benzyl)-1,2,3-oxadiazol-3-ium-5-yl)((2-(trifluoromethyl)pyridin-4-yl)carbamoyl)amide] | 1000 to 20000
28 | Cc1noc(C)c1-c1ccc(C[n+]2cc([N-]C(=O)Nc3ccnc(C(F)(F)F)c3)on2)cc1 [Example 186, (3-(4-(3,5-dimethylisoxazol-4-yl)benzyl)-1,2,3-oxadiazol-3-ium-5-yl)((2-(trifluoromethyl)pyridin-4-yl)carbamoyl)amide] | 1000 to 20000
